Measured values from several laboratories, pooled; numbers as filed in NIAID ChemDB.

All rows: tests in culture; species: Human cytomegalovirus; read-out: EC90

Two numbers with a dash give a range or band. Conditions beyond the fields shown may differ between rows. ECn is the concentration giving n% inhibition of infection, replication or growth. Blank or dashed fields: not listed here.

SMILES | strain | cell line | method | result
Nc1cc(=O)n2c3c1nnn3C[C@H]1O[C@@H]2[C@H](O)[C@@H]1O | - | Huh7 | - | 29.7 µM
C[C@@H]1O[C@@H](n2c(Cl)nc3cc(Cl)c(Cl)cc32)[C@H](O)[C@@H]1O | 2916 (bdcrb maribavir-resistant) | HFF | virus yield | 0.7 µM
Nc1nc2cc(Cl)c(Cl)cc2n1[C@H]1C[C@H](O)[C@@H](CO)O1 | TOWNE | HFF | virus yield | 3.8 µM
Nc1nc2c(ncn2COC(CO)CO)c(=O)[nH]1 | AD169 | HFF | plaque count | 19 µM
Cc1cc(=O)n2c3c1nnn3C[C@H]1O[C@@H]2[C@H](O)[C@@H]1O | - | Huh7 | - | 15.4 µM
OC[C@H]1O[C@@H](n2c(Cl)nc3cc(Cl)c(Cl)cc32)[C@H](O)[C@@H]1O | - | - | virus yield | 0.2 µM
Nc1ncnc2c1ncn2C=C1CC1CO | AD169 | KB | virus yield | 1–2 µM
O=C(NCc1ccc(Cl)cc1)c1c[nH]c2ccc(CCCO)cc2c1=O | Clinical isolates | - | plaque count | 5.8 µM
COc1cc(OC)c(NC(=S)Nc2ccc(NC(C)=O)cc2)cc1Cl | 16 isolates | - | virus yield | 0.384 µM
CCNc1cc(=O)n2c3c1nnn3C[C@H]1O[C@@H]2[C@H](O)[C@@H]1O | - | Huh7 | - | >100 µM
O=C(NCc1ccc(Cl)cc1)c1c[nH]c2c(F)cccc2c1=O | 759rD100 | - | plaque count | 25.4 µM
Cn1cc(C(=O)NCc2ccc(Cl)cc2)c(=O)c2cc(CN3CCOCC3)ccc21 | DAVIS | HFF | virus yield | 3.3 µM
O=c1cc(NCCCO)c2nnn3c2n1[C@@H]1O[C@H](C3)[C@@H](O)[C@H]1O | - | Huh7 | - | >100 µM
Nc1nc2c(ncn2COC(CO)CO)c(=O)[nH]1 | VR6264 (ganciclovir-resistant) | - | plaque count | 33.7 µM
CCCCNc1cc(=O)n2c3c1nnn3C[C@H]1O[C@@H]2[C@H](O)[C@@H]1O | - | Huh7 | - | >100 µM
OC[C@H]1O[C@@H](n2c(Br)nc3cc(Cl)c(Cl)cc32)C[C@@H]1O | TOWNE | HFF | virus yield | 6 µM
CC(=O)N(O)CCCCCNC(=O)CCC(=O)N(O)CCCCCNC(=O)CCC(=O)N(O)CCCCCN | AD169 | HFF | plaque count | 17.3 µM
NC(=S)N/N=C/c1ccc(OC(F)(F)F)cc1 | AD169 | Human foreskin fibroblasts | cytopathic effect | >60 µM
OC[C@H]1O[C@@H](n2c(Br)nc3cc(Cl)c(Cl)cc32)[C@H](O)[C@@H]1O | AD169 | HFF | virus yield | 0.36 µM
O[C@@H]1[C@H](O)[C@H]2Cn3nnc4ccc(=S)n(c43)[C@@H]1O2 | - | Huh7 | - | 10 µM
Nc1nc2c(ncn2COC(CO)CO)c(=O)[nH]1 | 2916 (bdcrb maribavir-resistant) | HFF | virus yield | 1.5 µM
OC[C@H]1O[C@@H](n2c(Br)nc3cc(Cl)c(Cl)cc32)[C@H](O)[C@@H]1O | AD169 | HFF | virus yield | 2 µM
[N-]=[N+]=Nc1nc2cc(Cl)c(Cl)cc2n1[C@H]1C[C@H](O)[C@@H](CO)O1 | TOWNE | HFF | virus yield | 38 µM
CC(C)Nc1nc2cc(Cl)c(Cl)cc2n1[C@H]1O[C@@H](CO)[C@H](O)[C@@H]1O | TOWNE | HFF | virus yield | 0.3 µM
Nc1nc2c(ncn2COC(CO)CO)c(=O)[nH]1 | TOWNE | - | virus yield | 0.4 µM
CNc1cc(=O)n2c3c1nnn3C[C@H]1O[C@@H]2[C@H](O)[C@@H]1O | - | Huh7 | - | 7.4 µM

4 of the rows above, restated:

SMILES | strain | cell line | method | result
OC[C@H]1O[C@@H](n2c(Br)nc3cc(Cl)c(Cl)cc32)[C@H](O)[C@@H]1O | AD169 | HFF | virus yield | 2 µM
CNc1cc(=O)n2c3c1nnn3C[C@H]1O[C@@H]2[C@H](O)[C@@H]1O | - | Huh7 | - | 7.4 µM
Nc1nc2c(ncn2COC(CO)CO)c(=O)[nH]1 | TOWNE | - | virus yield | 0.4 µM
O=C(NCc1ccc(Cl)cc1)c1c[nH]c2c(F)cccc2c1=O | 759rD100 | - | plaque count | 25.4 µM